Primary screen of a compound library

From ChEMBL document CHEMBL3988442, “University of Dundee, Small-Polar-MMV Screening Library” (2021).

Mtb glucose medium: 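Phenotypic screen: M. tuberculosis growth, glucose 7H9 medium, 3 days; the read-out is not stated. Tested at 500 µM. Higher reads as more growth inhibition (inferred: compounds with an IC50 in retests scored well above the rest). About 18,000 compounds were tested under these conditions; 7.9% (about 1,400) showed 50% or more at least once.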
Mtb cholesterol medium: 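Phenotypic screen: M. tuberculosis growth, cholesterol and DPPC medium, 4 days; the read-out is not stated. Tested at 500 µM. Higher reads as more growth inhibition (inferred: compounds with an IC50 in retests scored well above the rest). About 18,000 compounds were tested under these conditions; 5% (about 900) showed 50% or more at least once.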

Results are given as percent effect.
The record does not define 0% and 100%; most values in the screen are far below 50% and negative numbers occur (in some assays of this library far below -100).
Many other results are left out here, so strong results are more common than in the screen.
A dash means the value is not listed here; it may have been measured.

structure,Mtb glucose medium,Mtb cholesterol medium
Cc1cc(C(=O)N[C@@H]2CC[C@@H](N)C2)ccc1O,-1.245%,-
Cc1noc(C)c1C(=O)NCCN1CCCCCC1=O,12.74%,-
CSc1ncccc1C(=O)NCCN1CCC(C)CC1,-3.774%,-
CN1CCN(CCS(=O)(=O)c2ccc(Cl)cc2)CC1,13.11%,-
CC(Cc1ccccc1F)NC1(C(N)=O)CC1 (stereo unspecified),18.55%,-
CS(=O)(=O)Nc1ccc(N2CCNCC2)cc1,-,24.42%
CC(C)CCNC(=O)CCn1cc(Br)ccc1=O,50.54%,-
OC(Cn1nnc(-c2ccsc2)n1)CC(F)(F)F (stereo unspecified),81.89%,88.73%
COc1ccc(C(C)=O)cc1CN1CCC[C@H]1CO,28.87%,-
CCc1cc(C#N)ccc1NC(=O)N[C@@H]1CCCNC1,38.53%,-
Nc1nc(NCCc2c[nH]cn2)cc(C2CC(N)C2)n1 (stereo unspecified),-,16.5%
O=C(CNCC1CC1)Nc1ccccc1,50.25%,-
Cc1noc(C)c1S(=O)(=O)NCCCN1CCCC1=O,14.84%,-
CN(C)C1CN(C(=O)Nc2cccc(OCCF)c2)C1,6.473%,-
CC(OC(=O)Cn1cnc2ccccc2c1=O)C(N)=O (stereo unspecified),-10.41%,-
CCC1CN(C(=O)c2cnc(C)cn2)CCO1 (stereo unspecified),12.74%,5.942%
CC(C(=O)N1CCNC(=O)C1)S(C)(=O)=O (stereo unspecified),-,3.861%
CC(=O)c1cnc2ccsc2c1,-11.36%,-
Cc1cc(CN2CCC(Oc3cccnc3)CC2)on1,52.1%,33.67%
CC(C)COc1cncc(NC2CCN(C)C2=O)n1 (stereo unspecified),12.09%,-
Cc1cnc(CNC(=O)Cn2nc(C)c(C)c2C)cn1,21.32%,-
CCC1c2cccn2CCN1C(=O)c1snnc1C (stereo unspecified),22.8%,-
C1CC(NC2CCOCC2)CCN1,-6.475%,-
O=C1C=CC(=O)N1Cc1ccc(Cl)cc1,100.7%,113.7%
COCCN1CCC(CNC(=O)c2coc(Br)c2)CC1,18.68%,2.749%
NCCc1nccn1Cc1ccccc1,36.4%,-
Cc1ccc2[nH]c(CN)nc2c1C,65.31%,46.86%
CCNS(=O)(=O)C1CCN(Cc2cn(C)nc2CC)C1 (stereo unspecified),12.01%,-
OC[C@@H]1CN(CC2CC2)C[C@H]1c1nc(C2CC2)no1,3.912%,-
CNC(=O)C1CN(C(=O)Cc2ccc(F)cc2)CCO1 (stereo unspecified),4.469%,-
NC(=O)NC(=O)CCn1cc(-c2ccccc2)cn1,-12.37%,-8.468%
OC(CN1CCOCC12CCCC2)C(F)(F)F (stereo unspecified),-,5.879%
CC(C(=O)Nc1ccc2c(c1)CCC2)S(C)(=O)=O (stereo unspecified),27.27%,4.197%
O=C(NCCc1c[nH]cn1)c1ccncc1,-,6.218%
CCN1CCCC1Cn1c(=O)[nH]c2ccccc2c1=O (stereo unspecified),6.631%,1.365%
COCC(C)Oc1cc(C)ccc1CN (stereo unspecified),64.36%,-
O=C(CN(CCO)C1CC1)NC1CCN(C2CC2)CC1,8.928%,-
Cc1nc(C(=O)NCCc2nncn2C(C)C)cs1,10.56%,-
CN(C)c1ncc(CNC(=O)C2(C)CCC2)n1C,-,-1.95%
COCCN(Cc1cccnc1)C(=O)c1csc(C)n1,2.229%,-
Cc1ccccc1N(C(=O)C(C)C)C1C=CS(=O)(=O)C1 (stereo unspecified),6.006%,-

For reference, 3 entries once more:

structure	Mtb glucose medium	Mtb cholesterol medium
CN1CCN(CCS(=O)(=O)c2ccc(Cl)cc2)CC1	13.11%	-
OC(Cn1nnc(-c2ccsc2)n1)CC(F)(F)F (stereo unspecified)	81.89%	88.73%
Cc1noc(C)c1S(=O)(=O)NCCCN1CCCC1=O	14.84%	-